A mixed list of measured activities; the numbers were collected in NIAID ChemDB.

All rows: tests in culture; species: Mycobacterium tuberculosis

MIC bound: limit read from a one-dose screen.

SMILES	cells	measure	read by	dose	strain or isolate	value
COc1cccc2c1C(=O)c1c(O)c3c(c(O)c1C2=O)C[C@@](O)(c1csc(N)n1)C[C@@H]3OC1CC(N)C(O)C(C)O1.Cl.Cl		MIC	BACTEC		H37Rv	≥12.5 µg/mL
COc1ccc(C2SC(C)C(=O)N2NC(=O)COc2ccc(NC(C)=O)cc2)cc1		inhibition		12.5 µg/mL	H37Rv	28%
O=C(N/N=C/c1ccc(Oc2ccccc2Cl)cc1)c1nc2ccccc2[nH]1		MIC	resazurin		H37Rv	6.25 µg/mL
C=C(C)[C@@H]1CC[C@]2(C(=O)O)CC[C@]3(C)C(CCC4[C@@]5(C)CC[C@H](OC(=O)/C=C/c6ccc(OC(C)=O)cc6)C(C)(C)C5CC[C@]43C)C12		MIC	resazurin		H37Ra	12.5 µg/mL
C[C@@H]1[C@@H](NC(=O)c2cc3c(F)cc(F)cc3[nH]2)C[C@H]2C[C@@H]1C2(C)C		MIC	resazurin / fluorescence		V4207	0.0078 µM
COc1cc(/C=N/NC(=O)COc2ccc(NC(C)=O)cc2)cc(OC)c1OC		EC50			H37Rv	>12.5 µg/mL
CCCCN=C(N=Nc1c(O)[nH]c2ccccc12)SCC(=O)c1ccc([N+](=O)[O-])cc1		MIC			H37Rv	12.5 µg/mL
O=C1c2cc(I)ccc2-n2c1nc1ncccc1c2=O		MIC			H37Rv	0.03 µg/mL
CN(CC#CC(C)(C)C)c1cccc2c1CCC(=O)N2		MIC			H37Rv	>6.25 µg/mL
O=C(CSc1nc(-c2ccccc2)c(-c2ccccc2)[nH]1)N=Nc1c(O)[nH]c2ccc(Br)cc12		EC50			H37Rv	>12 µg/mL
O=c1cc(-c2cccs2)ss1		inhibition	BACTEC	12.5 µg/mL	H37Rv	7%
COc1cc(/C=C/C(=O)O[C@H]2CC[C@@]3(C)C(CC[C@]4(C)C3CC=C3C5CC(C)(C)CC[C@]5(C(=O)O)CC[C@]34C)C2(C)C)ccc1O		MIC	resazurin		H37Ra	12.5 µg/mL
COc1cc(O)c2c(O)c3c(=O)cc(C)oc3cc2c1		MIC			PAS-R	12.5 µg/mL
O=[n+]1c(Sc2ccccc2)c(CBr)n([O-])c2cc(Cl)ccc21		inhibition		6.25 µg/mL	H37Rv	96%
C=CCN1C(=O)C(C)S/C1=N\N=C1/C(=O)Nc2ccccc21		EC50			H37Rv	>12 µg/mL
Cc1c(Sc2ccccc2)[n+](=O)c2ccc(C(F)(F)F)cc2n1[O-]		MIC			H37Rv	0.39 µg/mL
CC1(C)C2CC3OB([C@H](Cc4ccccc4)[C@@H](Cc4ccccc4)NC(=O)[C@@H](N)CCCCN)O[C@]3(C)C1C2		MIC	agar		H37Rv	≤50 µg/mL
CO[C@H]1/C=C/O[C@@]2(C)Oc3c(C)c(O)c4c(O)c(c(/C=N/N=C(\C)N5CCCCC5)c(O)c4c3C2=O)NC(=O)/C(C)=C\C=C\[C@H](C)[C@H](O)[C@@H](C)[C@@H](O)[C@@H](C)[C@H](OC(C)=O)[C@@H]1C		MIC			H37Rv	0.016 µg/mL
COC1C[C@H](C)[C@@H](OC)C2=CC(=O)C=C(NC(=O)/C(C)=C/C=C\[C@H](C)C(OC(N)=O)/C(C)=C/[C@@H](C)[C@@H]1OC)C2=O		MIC	BACTEC		H37Rv	≥12.5 µg/mL
O=C(CSc1nc2ccc(Cl)cc2c(=O)n1-c1ccccc1)N=Nc1c(O)[nH]c2ccc(Br)cc12		inhibition		12 µg/mL	H37Rv	88%
CC(=O)Nc1ccc(S(=O)(=O)N/N=C/c2ccco2)cc1		inhibition	BACTEC	12.5 µg/mL	H37Rv	65%
Cc1c(S(=O)(=O)c2ccccc2)[n+](=O)c2ccccc2n1[O-]		inhibition		6.25 µg/mL	H37Rv	100%
CC1(C)OCC(C2OC3OC(C)(C)OC3C2NN)O1		inhibition	BACTEC	12.5 µg/mL	H37Rv	4%
CCOc1cc2c(cc1F)n([O-])c(C)c(Cl)[n+]2=O		inhibition		6.25 µg/mL	H37Rv	99%
C[C@@H]1CC[C@]2(C(=O)O)CC[C@]3(C)C(=CCC4[C@@]5(C)CC[C@H](OC(=O)/C=C/c6ccc(O)cc6)C(C)(C)C5CC[C@]43C)C2[C@H]1C		MIC	resazurin		H37Ra	6.25 µg/mL
CCCCN1C(=O)C(C)S/C1=N\N=C1/C(=O)Nc2ccccc21		MIC			H37Rv	>12.5 µg/mL
C[C@@H](B1OC2CC3CC(C3(C)C)[C@@]2(C)O1)[C@@H](Cc1ccccc1)NC(=O)[C@@H](N)CCCCN		MIC			H37Rv	≤50 µg/mL
COc1cc(C2=NN(C(=O)COc3ccc4ccccc4c3)[C@H](c3ccc(O)cc3)C2)c(C)cc1OCC(=O)O		inhibition		6.25 µg/mL	H37Rv	61%
CCOC(=O)CCc1cc(=O)oc2cc(O)cc(O)c12		MIC bound	BACTEC		H37Rv	>12.5 µg/mL
CCCCCCC(C)c1ccc2c(c1)C(=O)c1nc3ccncc3c(=O)n1-2		MBC			H37Rv	2 µg/mL
CC1=C(N)C(=O)C2=C(C1=O)N1C[C@H]3[C@H](N3C)[C@]1(O)[C@@H]2COC(N)=O		MIC			ETA-R	1.6 µg/mL
C[C@@H](NC(=O)[C@@H](N)Cc1ccccc1)[C@@H](Cc1ccccc1)B1OC2CC3CC(C3(C)C)[C@@]2(C)O1		MIC	agar		H37Rv	≤50 µg/mL
CCOC(=O)c1ccc2c(c1)C(=O)c1nc3ncccc3c(=O)n1-2		MIC			H37Rv	0.06 µg/mL
CCCN(CCC)/C(C)=N/N=C/c1c2c(O)c3c(O)c(C)c4c(c3c1O)C(=O)[C@@](C)(O/C=C/[C@H](OC)[C@@H](C)[C@@H](OC(C)=O)[C@H](C)[C@H](O)[C@H](C)[C@@H](O)[C@@H](C)/C=C/C=C(/C)C(=O)N2)O4		MIC			H37Rv	0.032 µg/mL
CC(=O)Nc1ccc(OCC(=O)NN2C(=O)CSC2c2ccc(Cl)cc2)cc1		inhibition		12.5 µg/mL	H37Rv	0%
CC/C(=N\N=C\c1c2c(O)c3c(O)c(C)c4c(c3c1O)C(=O)[C@@](C)(O/C=C/[C@H](OC)[C@@H](C)[C@@H](OC(C)=O)[C@H](C)[C@H](O)[C@H](C)[C@@H](O)[C@@H](C)/C=C/C=C(/C)C(=O)N2)O4)N(CC)CC		MIC			H37Rv	0.016 µg/mL
CCCCCCCNC(=O)c1cc2c(Cl)cc(Cl)cc2[nH]1		MIC	resazurin / fluorescence		H37Rv	391 µM
C=C(C)[C@@H]1CC[C@]2(C(=O)O)CC[C@]3(C)[C@H](CC[C@@H]4[C@@]5(C)CC[C@H](O)C(C)(C)[C@@H]5CC[C@]43C)[C@@H]12		MIC	resazurin		H37Ra	50 µg/mL
CCCCn1c(-c2ccccc2)cs/c1=N\N=C1/C(=O)Nc2ccccc21		inhibition		12 µg/mL	H37Rv	24%
CC(=O)O.Nc1nc(=O)nc2[nH]c3c4cccc5cccc(c3nc12)c54.O=S(=O)(O)O		inhibition	BACTEC	12.5 µg/mL	H37Rv	-4%
COc1ccc(C2SCC(=O)N2NC(=O)COc2ccc(NC(C)=O)cc2)cc1OC		inhibition		12.5 µg/mL	H37Rv	0%
Cc1c(Cl)[n+](=O)c2cc(Cl)ccc2n1[O-]		inhibition		6.25 µg/mL	H37Rv	100%
CO[C@H]1/C=C/O[C@@]2(C)Oc3c(C)c(O)c4c(O)c(c5c(c4c3C2=O)NC2(CCN(CC(C)C)CC2)N=5)=NC(=O)/C(C)=C\C=C\[C@H](C)[C@H](O)[C@@H](C)[C@@H](O)[C@@H](C)[C@H](OC(C)=O)[C@@H]1C		MIC			Strain 81 (F514 deletion)	0.25 µg/mL
COc1cc2c(-c3c4c5c(cc(OC)c(OC)c5c5cc(OC)c(OC)cc35)CCN4C)c3c4c(cc(OC)c(OC)c4c2cc1OC)CCN3C		inhibition	BACTEC	12.5 µg/mL	H37Rv	-41%
COCc1ccc2c(c1)C(=O)c1nc3ccncc3c(=O)n1-2		MIC			H37Rv	0.13 µg/mL
Cc1c[n+](=O)c(C)cn1[O-]		MIC	BACTEC		H37Rv	≥12.5 µg/mL
CC1(C)C2CC3OB(C[C@@H](Cc4ccccc4)NC(=O)[C@H](Cc4ccccc4)NC(=O)[C@@H](N)Cc4ccccc4)O[C@]3(C)C1C2		MIC	agar		H37Rv	≤500 µg/mL
Cc1ccc2nc3n(c(=O)c2c1)-c1ccc(F)cc1C3=O		MIC			H37Rv	0.13 µg/mL
N=C1C=CC(=NCc2ccc(N)cc2)C=C1		MIC bound	BACTEC		H37Rv	>12.5 µg/mL
O=C(CSc1nc2ccccc2[nH]1)N=Nc1c(O)[nH]c2ccccc12		MIC			H37Rv	>12.5 µg/mL
COc1ccc(/C=C/COC(=O)/C=C/c2ccc(OC)c(OC)c2)cc1OC		inhibition	BACTEC	12.5 µg/mL	H37Rv	6%
CCOc1cc2c(cc1F)n([O-])c(C)c(S(=O)(=O)c1ccccc1)[n+]2=O		MIC			H37Rv	6.25 µg/mL
O=C(N/N=C/c1ccc(Oc2ccc(Cl)cc2)cc1)c1nc2ccc([N+](=O)[O-])cc2[nH]1		MIC	resazurin		H37Rv	1.75 µg/mL
CC1(C)CC[C@]2(C(=O)O)CC[C@]3(C)C(=CC[C@@H]4[C@@]5(C)CC[C@H](O)C(C)(C)[C@@H]5CC[C@]43C)[C@@H]2C1		MIC	resazurin		H37Ra	50 µg/mL
O=C(Nc1ccc(NC2=NCCN2)cc1)c1cc(C(=O)Nc2ccc(NC3=NCCN3)cc2)cc([N+](=O)[O-])c1		inhibition	resazurin	6.25 µg/mL	H37Rv	83%
O=C1c2cc(F)ccc2-n2c1nc1ccc(F)cc1c2=O		MIC			H37Rv	0.13 µg/mL
CCC#CC#CCN(C)c1cccc2c1CCC(=O)N2		inhibition		6.25 µg/mL	H37Rv	27%
Cc1ccc2nc(-c3ccc(NC(=O)c4ccc(C(=O)Nc5ccc(-c6nc7ccc(C)cc7s6)cc5)cc4)cc3)sc2c1		MIC bound	BACTEC		H37Rv	>6.25 µg/mL
O=C(NC1Cc2ccccc2C1)c1cc2c(F)cc(F)cc2[nH]1		MIC	resazurin / fluorescence		H37Rv	3.202 µM
Oc1cc(Cl)ccc1Oc1ccc(Cl)cc1Cl		MIC	resazurin		H37Rv	5 µg/mL
Cc1cc2c(c3c1c(=O)c1ccccc1n3C)C=CC(C)(C)O2		MIC			INH-r	12.5 µg/mL
CO[C@H]1/C=C/O[C@@]2(C)Oc3c(C)c(O)c4c(O)c(c(/C=N/N=C(\C)N5CCOCC5)c(O)c4c3C2=O)NC(=O)/C(C)=C\C=C\[C@H](C)[C@H](O)[C@@H](C)[C@@H](O)[C@@H](C)[C@H](OC(C)=O)[C@@H]1C		MIC			H37Rv	0.016 µg/mL
CO[C@H]1/C=C/O[C@@]2(C)Oc3c(C)c(O)c4c(=O)c(c5oc6cc(N7CCN(CC(C)C)CC7)cc(=O)c6nc5c4c3=C2O)NC(=O)/C(C)=C\C=C\[C@H](C)[C@H](O)[C@@H](C)[C@@H](O)[C@@H](C)[C@H](OC(C)=O)[C@@H]1C		MIC			2218 (MDR)	0.125 µg/mL
CC1(C)C2CC3OB(C[C@@H](Cc4ccccc4)NC(=O)[C@@H](N)Cc4ccccc4)O[C@]3(C)C1C2		MIC	agar		H37Rv	≤500 µg/mL
Cc1cccc(C(N)=Nc2nc(-c3ccccn3)cc3ccccc23)c1		MIC			J-2847	0.5 µg/mL
Cc1ccc2c(c1)[n+](=O)c(S(=O)(=O)c1ccccc1)c(C)n2[O-]		inhibition		6.25 µg/mL	H37Rv	79%
CCCCCCCCc1ccc2nc3n(c(=O)c2c1)-c1ccc(Cl)cc1C3=O		MIC			H37Rv	1 µg/mL
CCCCCCCCC(=O)N(C)C1C2CN3CCC(O2)C13		MIC	BACTEC		H37Rv	≥12.5 µg/mL
CC1(C)C2CC3OB(C[C@@H](Cc4ccccc4)NC(=O)[C@H](N)CCCCN)O[C@]3(C)C1C2		MIC	agar		H37Rv	≤500 µg/mL
O=C(N/N=C/c1ccc(Oc2cccc3ccccc23)cc1)c1nc2ccccc2[nH]1		MIC	resazurin		H37Rv	12.5 µg/mL
O=[N+]([O-])c1ccc(-c2nn3c(C45CC6CC(CC(C6)C4)C5)nnc3s2)c(Cl)c1		MIC bound	BACTEC		H37Rv	>12.5 µg/mL
Cc1ccc(Nc2c(C#N)[n+]([O-])c3cc(Cl)ccc3[n+]2[O-])cc1		MIC			H37Rv	<12.5 µg/mL
CCN(CCNc1ccc(CO)c2sc3ccccc3c(=O)c12)CC(C)(C)O		inhibition	BACTEC	12.5 µg/mL	H37Rv	69%
CC(=O)Nc1ccc(OCC(=O)N/N=C/c2ccccc2Cl)cc1		inhibition		12.5 µg/mL	H37Rv	35%
C[C@]1(COc2ccc(N3CCC(Oc4ccc(OC(F)(F)F)cc4)CC3)cc2)Cn2cc([N+](=O)[O-])nc2O1		MIC			ATCC 35822 (H37RV-H-R)	0.012 µg/mL
CN=C(N=Nc1c(O)[nH]c2ccccc12)SCC(=O)c1ccccc1		MIC			H37Rv	12.5 µg/mL
Cc1sc(N=C(Nc2ccccc2)Nc2ccccc2)nc1-c1ccccc1	VERO	MIC	resazurin		H37Rv	6.25 µg/mL
O=C(N/N=C/c1ccc(Oc2ccc(Cl)cc2)cc1)c1nc2ccccc2[nH]1		MIC	resazurin		H37Rv	3.125 µg/mL

Repeating the final 9 entries:

SMILES,cells,measure,read by,dose,strain or isolate,value
O=C(N/N=C/c1ccc(Oc2cccc3ccccc23)cc1)c1nc2ccccc2[nH]1,,MIC,resazurin,,H37Rv,12.5 µg/mL
O=[N+]([O-])c1ccc(-c2nn3c(C45CC6CC(CC(C6)C4)C5)nnc3s2)c(Cl)c1,,MIC bound,BACTEC,,H37Rv,>12.5 µg/mL
Cc1ccc(Nc2c(C#N)[n+]([O-])c3cc(Cl)ccc3[n+]2[O-])cc1,,MIC,,,H37Rv,<12.5 µg/mL
CCN(CCNc1ccc(CO)c2sc3ccccc3c(=O)c12)CC(C)(C)O,,inhibition,BACTEC,12.5 µg/mL,H37Rv,69%
CC(=O)Nc1ccc(OCC(=O)N/N=C/c2ccccc2Cl)cc1,,inhibition,,12.5 µg/mL,H37Rv,35%
C[C@]1(COc2ccc(N3CCC(Oc4ccc(OC(F)(F)F)cc4)CC3)cc2)Cn2cc([N+](=O)[O-])nc2O1,,MIC,,,ATCC 35822 (H37RV-H-R),0.012 µg/mL
CN=C(N=Nc1c(O)[nH]c2ccccc12)SCC(=O)c1ccccc1,,MIC,,,H37Rv,12.5 µg/mL
Cc1sc(N=C(Nc2ccccc2)Nc2ccccc2)nc1-c1ccccc1,VERO,MIC,resazurin,,H37Rv,6.25 µg/mL
O=C(N/N=C/c1ccc(Oc2ccc(Cl)cc2)cc1)c1nc2ccccc2[nH]1,,MIC,resazurin,,H37Rv,3.125 µg/mL

Inhibition is in % at the dose shown (toxicity tests: loss of growth or viability). Rows are shuffled and stem from different studies. An empty or dashed field is not shown. ECn is the concentration giving n% inhibition of infection, replication or growth.